The values that follow come from PubChem BioAssay AID720580 (National Center for Advancing Translational Sciences (NCATS), 2013).

The list shows a part of the results, in another mix than the full data. Inconclusive results are not listed. Entries that show only a call come without a potency. Activity calls are given as the source filed them. Calls follow the shape of the full dose curve; tested in A549 cells.
Potency is read from the fitted curve at half-maximal effect.

The nature of the test: qHTS for Stage-Specific Inhibitors of Vaccinia Orthopoxvirus: Venus Reporter Primary qHTS. Also: nearly all actives have a fitted effect of over 30% in size. The conditions noted are these: Vaccinia virus Venus reporter expression, fluorescence; series mostly up to 36.5 µM. A general note: qHTS replaces the single test concentration by a dilution series.
On to `Cc1ccc(OP(=O)(Nc2nccs2)Oc2ccc(C)cc2)cc1`, for which the activity change, negative = inhibition result is “inactive”. For `COc1ccc(OP(C)(=O)Nc2ccccn2)cc1` (centres undefined), the activity change, negative = inhibition entry was “inactive”. Still for that read-out and setting: the same measure for `COc1ccccc1OP(=O)(Nc1ccc(C)cn1)Oc1ccccc1OC`: “inactive”. Regarding `Clc1ccc(Cl)c(NC2=NCC(CBr)S2)c1` (centres undefined), the activity change, negative = inhibition result is “inactive”. As for `CN1CCCC(OC(=O)C(c2ccccc2)c2ccccc2)C1` (centres undefined), the activity change, negative = inhibition entry is “inactive”. The same measure, in the same setting: the entry for `O=[N+]([O-])c1cc2c(cc1[N+](=O)[O-])OCO2` is “inactive”. Regarding `CC(=O)OC1C(=O)OCC23CCC4(C)OC4C2OC2CC(OC(=O)C=CC=CC(=O)OCCC1C)C3(C)C21CO1` (centres undefined), the Potency was active: 2.51 µM. On to `Cc1ccc(N/C(=N/P(=O)(N2CCOCC2)N2CCOCC2)N2CCOCC2)cc1`, for which the activity change, negative = inhibition result is “inactive”. Same read-out and setting: the same measure for `COc1ccccc1OP(C)(=O)Nc1ccc(Br)cc1` (centres undefined): “inactive”. Same read-out and setting: the entry for `CN(C(=O)Cc1ccc(Cl)c(Cl)c1)[C@H]1CCCC[C@H]1N1CCCC1` is “inactive”; for `COc1ccccc1OP(C)(=O)Nc1ccc(C)cc1C` (centres undefined) it is “inactive”; for `CP(=O)(Nc1ccccn1)Oc1ccccc1` (centres undefined) it is “inactive”. Turning to `CCc1ccc(OP(C)(=O)O)cc1`, the activity change, negative = inhibition entry was “inactive”.

With `O=[N+]([O-])C1C(O)C(O)C([N+](=O)[O-])C(O)C1O` (centres undefined), the activity change, negative = inhibition entry was “inactive”. In the case of `CC(C)CC(=O)NC(Sc1ccc(Cl)cc1)C(Cl)(Cl)Cl` (centres undefined), the activity change, negative = inhibition entry is “inactive”. On to `Cc1c(NP(C)(=O)Oc2ccc(C(C)C)cc2)c(=O)n(-c2ccccc2)n1C` (centres undefined), for which the activity change, negative = inhibition result was “inactive”.

Regarding `Nc1cc(N)c2nonc2c1[N+](=O)[O-]`, the activity change, negative = inhibition result is “inactive”. For `Oc1ccccc1CNc1ccccn1`, the activity change, negative = inhibition result is “inactive”. On the same count and under the same terms, the same measure for `Cc1ccc(NP(=O)(Oc2ccccc2F)Oc2ccccc2F)nc1`: inactive: -10.3% [at 7.34 µM]; for `CN(C(=O)Cc1ccc(Cl)c(Cl)c1)[C@H]1CCCC[C@@H]1N1CCCC1`: “inactive”. For the molecule `COc1ccccc1OP(C)(=O)Nc1ccc(C)c(C)c1` (centres undefined), the activity change, negative = inhibition entry was “inactive”. The same measure, in the same setting: the entry for `CCOP(=O)(Nc1ccccc1)OCC` is “inactive”.

As to `COc1ccc(OP(C)(=O)Nc2ccccc2Br)cc1` (centres undefined), the activity change, negative = inhibition entry was “inactive”. Same read-out and setting: the same measure for `CCCC1OP(N)(=O)OCC1CC` (centres undefined): “inactive”. In the case of `O=C(O)c1ccccc1[As](=O)(O)O`, the activity change, negative = inhibition result is “inactive”. Still for that read-out and setting: the entry for `CC(=O)Nc1ccc([As](=O)(O)O)cc1` is “inactive”; for `Cc1cc(C)cc(OP(C)(=O)Nc2cccc(C(F)(F)F)c2)c1` (centres undefined) it is “inactive”. Regarding `CN(C)P(=O)(N(C)C)n1c(Nc2ccccc2)nnc1-c1ccccc1`, the activity change, negative = inhibition entry is “inactive”. In the case of `O=P(Nc1nc2ccc(Cl)cc2s1)(c1ccccc1)c1ccccc1`, the activity change, negative = inhibition entry is “inactive”. As for `CCN(N=Nc1nonc1N)c1nonc1N`, the activity change, negative = inhibition result is “inactive”.

`CP(=O)(Nc1ccc(Cl)cc1Cl)Oc1ccccc1` (centres undefined): the activity change, negative = inhibition result was “inactive”. As to `Nc1cccc2ccc([As](=O)(O)O)cc12`, the activity change, negative = inhibition result was “inactive”. On the same count and under the same terms, the entry for `Nc1c(O)cc([N+](=O)[O-])cc1[N+](=O)[O-]` is “inactive”; for `O=C(Nc1cc([As](=O)(O)O)ccc1O)c1ccccc1` it is “inactive”.
